Consider one molecule from patent publication US6794396B2, “Substituted pyridines useful for inhibiting cholesteryl ester transfer protein activity” (Pharmacia Corporation, priority 1998, dated 2004).

The target in the assay is T1, CETP (Homo sapiens, UniProt P11597).
T1 construct: made in house; host or cells: CHO cells (serum-free conditioned medium)
T1 sequence (P11597 18-493): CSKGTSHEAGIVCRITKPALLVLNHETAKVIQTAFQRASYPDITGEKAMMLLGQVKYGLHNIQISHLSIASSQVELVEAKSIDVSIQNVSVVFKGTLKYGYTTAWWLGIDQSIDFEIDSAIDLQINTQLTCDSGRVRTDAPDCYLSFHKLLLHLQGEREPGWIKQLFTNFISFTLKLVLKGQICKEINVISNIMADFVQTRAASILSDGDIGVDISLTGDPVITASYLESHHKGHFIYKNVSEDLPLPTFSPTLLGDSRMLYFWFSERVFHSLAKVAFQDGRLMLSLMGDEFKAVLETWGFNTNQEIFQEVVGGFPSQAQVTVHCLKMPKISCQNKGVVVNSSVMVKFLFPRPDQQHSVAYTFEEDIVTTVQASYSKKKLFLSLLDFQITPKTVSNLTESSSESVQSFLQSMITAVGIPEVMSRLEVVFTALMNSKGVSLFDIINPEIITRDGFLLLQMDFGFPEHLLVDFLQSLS
Briefly: CETP activity in vitro: transfer of [3H]CE from HDL donor to LDL acceptor particles. It counts as biochemical. The following applies: IC50(μm), 50% inhibition of [3H]CE transfer from HDL to LDL, 2 hours at 37° C. The protocol:
The ability of compounds to inhibit CETP were assessed using an in vitro assay that measured the rate of transfer of radiolabeled cholesteryl ester ([^3H]CE) from HDL donor particles to LDL acceptor particles. Details of the assay are provided by Glenn et al. (“Quantification of Cholesteryl Ester Transfer Protein (CETP): A) CETP Activity and B) Immunochemical Assay of CETP Protein,” Meth. Enzymol., Glenn and Melton (Meth. Enzymol., 263, 339-351 (1996), which is incorporated herein by reference). CETP was obtained from the serum-free conditioned medium of CHO cells transfected with a cDNA for CETP (Wang, S. et al. J. Biol Chem. 267, 17487-17490 (1992), which is incorporated herein by reference).
To measure CETP activity, [^3H]CE-labeled HDL, LDL, CETP and assay buffer (50 mM tris(hydroxymethyl)amino-methane, pH 7.4; 150 mM sodium chloride; 2 mM ethylenediamine-tetraacetic acid; 1% bovine serum albumin) were incubated in a volume of 200 μl, for 2 hours at 37° C. in 96 well plates. LDL was differentially precipitated by the addition of 50 μl of 1% (w/v) dextran sulfate/0.5 M magnesium chloride, mixed by vortex, and incubated at room temperature for 10 minutes The solution (200μl) was transferred to a filter plate (Millipore). After filtration, the radioactivity present in the precipitated LDL was measured by liquid scintillation counting.
This value was defined as the IC50.

Consider `COC(=O)c1c(C(F)F)nc(C(F)(F)F)c(SCCCl)c1CC(C)C` [Compound 44, Methyl 5-(Chloroethylthio)-2-(difluoromethyl)-4-(2-methylpropyl)-6-(trifluoromethyl)-3-pyridinecarboxylate], for which it took 50 µM to reach half-maximal inhibition (IC50). That is a double-digit micromolar value.

For orientation: IC50 means the point on the concentration scale where inhibition reaches its midpoint. Low values mean higher potency, high ones lower potency.
